Values from PubChem BioAssay AID504761 (Drosophila RNAi Screening Center, 2011).
Aim: 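Genome-wide fly cell screen for genes dengue virus requires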 (primary screen). Cell system: D.Mel-2 cells from Drosophila. Reagents: long dsRNA against Drosophila genes. Conditions: infection with dengue virus type 2; dose and infection time not stated. Measurement: 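Cells stained for dengue envelope protein and imaged; percent of infected cells per well on duplicate plates, ranked by infection, with stained nuclei counted for cell number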. Scale: infection score: higher = more virus-infected cells; cell count: higher = more cells in the well. Call rule: 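Low infection ranks in the two replicates (chance level up to 0.065) followed by a retest with a 1.5-fold or larger significant decrease, p below 0.05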. Calls: active = confirmed: knock-down lowers infection; inactive = not picked or not confirmed.
The deposit covers about 22,000 reagents; this is an unselected part of those that have a named target and a result. Of all reagents, 116 (0.52%) got an active call. 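Calls depend on retest data that are not deposited; infection was ranked per plate without normalising between plates; the unit of the infection score is not given.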 The raw values are shown without normalisation. A number with no mark means an inactive call. Not all columns of the deposit are shown. No sequences are given here. Not stated in the record: the amount of reagent, the time to read-out.

CG13707 (GeneID 38583) [DRSC08316] — infection score, replicate 1 = 0.76 (active); cell count, replicate 1 = 5887
CG4617 (GeneID 31657) [DRSC18377] — infection score, replicate 1 = 7.76; cell count, replicate 1 = 6325
CG4617 (GeneID 31657) [DRSC23828] — infection score, replicate 1 = 3.83; cell count, replicate 1 = 5564
kat-60L1 (GeneID 40715) [DRSC12184] — infection score, replicate 1 = 8.72; cell count, replicate 1 = 5952
kat-60L1 (GeneID 40715) [DRSC25414] — infection score, replicate 1 = 0.06 (active); cell count, replicate 1 = 6360
CG6912 (GeneID 41820) [DRSC16132] — infection score, replicate 1 = 5.46; cell count, replicate 1 = 5149
CG18635 (GeneID 37031) [DRSC06780] — cell count, replicate 1 = 425
CG18635 (GeneID 37031) [DRSC25971] — infection score, replicate 1 = 6.11; cell count, replicate 1 = 5567
CG15577 (GeneID 50378) [DRSC18065] — infection score, replicate 1 = 7.9; cell count, replicate 1 = 6205
CG9877 (GeneID 37666) [DRSC04587] — infection score, replicate 1 = 9.06; cell count, replicate 1 = 6184
CG9877 (GeneID 37666) [DRSC25386] — infection score, replicate 1 = 25.3; cell count, replicate 1 = 4570
CG9961 (GeneID 33459) [DRSC23343] — infection score, replicate 1 = 2.47; cell count, replicate 1 = 6960
CG9961 (GeneID 33459) [DRSC25842] — infection score, replicate 1 = 2.68; cell count, replicate 1 = 6406

Ordered by “cell count, replicate 1” (highest first): 2 of the entries above
CG15577 (GeneID 50378) [DRSC18065] — infection score, replicate 1 = 7.9; cell count, replicate 1 = 6205
CG18635 (GeneID 37031) [DRSC25971] — infection score, replicate 1 = 6.11; cell count, replicate 1 = 5567

Further results follow.
Pus1 (GeneID 42440) [DRSC15548] — cell count, replicate 1 = 375
Pus1 (GeneID 42440) [DRSC27461] — infection score, replicate 1 = 36.6; cell count, replicate 1 = 6171
Tsp42Ei (GeneID 35618) [DRSC06189] — infection score, replicate 1 = 16.8; cell count, replicate 1 = 5708
Tsp42Ei (GeneID 35618) [DRSC26994] — infection score, replicate 1 = 7.07; cell count, replicate 1 = 6406
CG17287 (GeneID 36939) [DRSC06659] — infection score, replicate 1 = 17.9; cell count, replicate 1 = 4456
mus301 (GeneID 38905) [DRSC10939] — infection score, replicate 1 = 1.3; cell count, replicate 1 = 5921
Vsx2 (GeneID 31469) [DRSC18088] — infection score, replicate 1 = 2.63; cell count, replicate 1 = 6568
Vsx2 (GeneID 31469) [DRSC23089] — infection score, replicate 1 = 3.08; cell count, replicate 1 = 5944
Vsx2 (GeneID 31469) [DRSC23273] — infection score, replicate 1 = 1.14; cell count, replicate 1 = 5269
